Experimental data from patent US10975126B1 (priority 2020, dated 2021).

System: MERS-CoV
Assay: Plaque reduction assay
Assay type: cell-based, MERS-CoV (CoV/KOR/KNIH/002_05_2015) in Vero cells
Conditions: for Normalize (plaque number): Vero cells, four days after infection; for Percent of DMSO #: plaques relative to DMSO control

## CC[C@H](C)[C@H](NC(=O)[C@H](Cc1ccc(O)cc1)NC(=O)[C@H](Cc1ccc(O)cc1)NC(=O)[C@H](CCC(=O)O)NC(=O)[C@H](CC(N)=O)NC(=O)[C@H](CC(C)C)NC(=O)[C@H](C)NC(=O)[C@H](CCCCN)NC(=O)[C@H](CCSC)NC(=O)[C@@H](NC(=O)[C@H](CCC(N)=O)NC(=O)[C@H](CCC(N)=O)NC(=O)[C@H](CC(C)C)NC(=O)[C@H](CO)NC(=O)[C@H](CCC(=O)O)NC(=O)[C@H](CCSC)NC(=O)[C@H](CCC(=O)O)NC(=O)[C@H](Cc1ccc(O)cc1)NC(=O)[C@@H](NC(=O)[C@H](CC(C)C)NC(=O)[C@H](CC(=O)O)NC(=O)[C@H](CC(C)C)NC(=O)[C@H](CC(C)C)NC(=O)[C@@H](NC(=O)[C@H](Cc1c[nH]c2ccccc12)NC(=O)[C@H](CC(N)=O)NC(=O)[C@@H](NC(=O)[C@H](CCC(N)=O)NC(=O)[C@@H](NC(=O)[C@H](CC(C)C)NC(=O)[C@@H](N)CO)[C@@H](C)O)[C@@H](C)CC)[C@@H](C)O)[C@@H](C)O)C(C)C)C(=O)N[C@@H](CC(=O)O)C(=O)N[C@@H](CC(C)C)C(=O)N[C@@H](CCCCN)C(=O)N[C@@H](Cc1c[nH]cn1)C(=O)N[C@@H](CC(C)C)C(=O)O
10 μM peptide
  Normalize (plaque number): 220
  Percent of DMSO #: 35.71%

## CC[C@H](C)[C@H](NC(=O)[C@H](Cc1ccc(O)cc1)NC(=O)[C@H](CO)NC(=O)[C@H](CCC(=O)O)NC(=O)[C@H](CC(N)=O)NC(=O)[C@H](CC(C)C)NC(=O)[C@H](CCCCN)NC(=O)[C@H](CCCCN)NC(=O)[C@@H](NC(=O)[C@@H](NC(=O)[C@H](CCC(=O)O)NC(=O)[C@H](CCC(=O)O)NC(=O)[C@H](CC(C)C)NC(=O)[C@H](CO)NC(=O)[C@H](CCCNC(=N)N)NC(=O)[C@H](CCSC)NC(=O)[C@H](CCC(=O)O)NC(=O)[C@H](Cc1ccc(O)cc1)NC(=O)[C@H](CCC(=O)O)NC(=O)[C@H](CC(C)C)NC(=O)[C@H](CC(=O)O)NC(=O)[C@H](CC(C)C)NC(=O)[C@H](CC(C)C)NC(=O)[C@@H](NC(=O)[C@@H](NC(=O)[C@H](CC(N)=O)NC(=O)[C@@H](NC(=O)[C@H](CCC(N)=O)NC(=O)[C@@H](NC(=O)[C@H](CC(C)C)NC(=O)[C@@H](N)CO)[C@@H](C)O)[C@@H](C)CC)[C@@H](C)O)[C@@H](C)O)C(C)C)C(C)C)C(=O)N[C@@H](CC(=O)O)C(=O)N[C@@H](CC(C)C)C(=O)N[C@@H](CCCCN)C(=O)N[C@@H](CCC(=O)O)C(=O)N[C@@H](CC(C)C)C(=O)O
10 μM peptide
  Normalize (plaque number): 184
  Percent of DMSO #: 29.87%

## CC[C@H](C)[C@H](NC(=O)[C@H](Cc1ccc(O)cc1)NC(=O)[C@H](Cc1ccc(O)cc1)NC(=O)[C@H](CCC(=O)O)NC(=O)[C@H](CC(N)=O)NC(=O)[C@H](CC(C)C)NC(=O)[C@H](C)NC(=O)[C@H](CCCCN)NC(=O)[C@@H](NC(=O)[C@@H](NC(=O)[C@H](CCC(N)=O)NC(=O)[C@H](CCC(N)=O)NC(=O)[C@H](CC(C)C)NC(=O)[C@H](CO)NC(=O)[C@H](CCC(=O)O)NC(=O)[C@H](CCSC)NC(=O)[C@H](CCC(=O)O)NC(=O)[C@H](Cc1ccc(O)cc1)NC(=O)[C@@H](NC(=O)[C@H](CC(C)C)NC(=O)[C@H](CC(=O)O)NC(=O)[C@H](CC(C)C)NC(=O)[C@H](CC(C)C)NC(=O)[C@@H](NC(=O)[C@H](Cc1c[nH]c2ccccc12)NC(=O)[C@H](CC(N)=O)NC(=O)[C@@H](NC(=O)[C@H](CCC(N)=O)NC(=O)[C@@H](NC(=O)[C@H](CC(C)C)NC(=O)[C@@H](N)CO)[C@@H](C)O)[C@@H](C)CC)[C@@H](C)O)[C@@H](C)O)C(C)C)C(C)C)C(=O)N[C@@H](CC(=O)O)C(=O)N[C@@H](CC(C)C)C(=O)N[C@@H](CCCCN)C(=O)N[C@@H](CCC(=O)O)C(=O)N[C@@H](CC(C)C)C(=O)O [Peptide 5]
10 μM peptide
  Normalize (plaque number): 31
  Percent of DMSO #: 5.032%
10 μM peptide, initial test
  inhibition of plaque formation: 95%

## CC[C@H](C)[C@H](NC(=O)[C@H](Cc1ccc(O)cc1)NC(=O)[C@H](CO)NC(=O)[C@H](CCC(=O)O)NC(=O)[C@H](CC(N)=O)NC(=O)[C@H](CC(C)C)NC(=O)[C@H](C)NC(=O)[C@H](CCCCN)NC(=O)[C@@H](NC(=O)[C@@H](NC(=O)[C@H](CCC(N)=O)NC(=O)[C@H](CCC(N)=O)NC(=O)[C@H](CC(C)C)NC(=O)[C@H](CO)NC(=O)[C@H](CC(C)C)NC(=O)[C@H](CCSC)NC(=O)[C@H](CCC(=O)O)NC(=O)[C@H](Cc1ccc(O)cc1)NC(=O)[C@@H](NC(=O)[C@H](CC(C)C)NC(=O)[C@H](CC(=O)O)NC(=O)[C@H](CC(C)C)NC(=O)[C@H](CC(C)C)NC(=O)[C@@H](NC(=O)[C@@H](NC(=O)[C@H](CC(N)=O)NC(=O)[C@@H](NC(=O)[C@H](CCC(N)=O)NC(=O)[C@@H](NC(=O)[C@H](CC(C)C)NC(=O)[C@@H](N)CO)[C@@H](C)O)[C@@H](C)CC)[C@@H](C)O)[C@@H](C)O)[C@@H](C)O)C(C)C)C(C)C)C(=O)N[C@@H](CC(=O)O)C(=O)N[C@@H](CC(C)C)C(=O)N[C@@H](CCCCN)C(=O)N[C@@H](CCC(=O)O)C(=O)N[C@@H](CC(C)C)C(=O)O
10 μM peptide
  Normalize (plaque number): 220
  Percent of DMSO #: 35.71%

## CC[C@H](C)[C@H](NC(=O)[C@H](Cc1ccc(O)cc1)NC(=O)[C@H](Cc1ccc(O)cc1)NC(=O)[C@H](CCC(=O)O)NC(=O)[C@H](CC(N)=O)NC(=O)[C@H](CC(C)C)NC(=O)[C@H](C)NC(=O)[C@H](CCCCN)NC(=O)[C@@H](NC(=O)[C@@H](NC(=O)[C@H](CCC(N)=O)NC(=O)[C@H](CCC(N)=O)NC(=O)[C@H](CC(C)C)NC(=O)[C@H](CO)NC(=O)[C@H](CCC(=O)O)NC(=O)[C@H](CCSC)NC(=O)[C@H](CCC(=O)O)NC(=O)[C@H](Cc1ccc(O)cc1)NC(=O)[C@@H](NC(=O)[C@H](CC(C)C)NC(=O)[C@H](CC(=O)O)NC(=O)[C@H](CC(C)C)NC(=O)[C@H](CC(C)C)NC(=O)[C@@H](NC(=O)[C@H](Cc1c[nH]c2ccccc12)NC(=O)[C@H](CC(N)=O)NC(=O)[C@@H](NC(=O)[C@H](CCC(N)=O)NC(=O)[C@@H](NC(=O)[C@H](CC(C)C)NC(=O)[C@@H](N)CO)[C@@H](C)O)[C@@H](C)CC)[C@@H](C)O)[C@@H](C)O)C(C)C)C(C)C)C(=O)N[C@@H](CC(=O)O)C(=O)N[C@@H](CC(C)C)C(=O)N[C@@H](CCCCN)C(=O)N[C@@H](Cc1c[nH]cn1)C(=O)N[C@@H](CC(C)C)C(=O)O
10 μM peptide
  Percent of DMSO #: 1.299%
Plaque reduction, peptide at 50 μM to 3.125 μM
  EC50: 1.85 µM

## CC[C@H](C)[C@H](NC(=O)[C@H](Cc1ccc(O)cc1)NC(=O)[C@H](CO)NC(=O)[C@H](CCC(=O)O)NC(=O)[C@H](CC(N)=O)NC(=O)[C@H](CC(C)C)NC(=O)[C@H](CCCCN)NC(=O)[C@H](CCCCN)NC(=O)[C@@H](NC(=O)[C@@H](NC(=O)[C@H](CCC(=O)O)NC(=O)[C@H](CCC(=O)O)NC(=O)[C@H](CC(C)C)NC(=O)[C@H](CO)NC(=O)[C@H](CCCNC(=N)N)NC(=O)[C@H](CCSC)NC(=O)[C@H](CCC(=O)O)NC(=O)[C@H](Cc1ccc(O)cc1)NC(=O)[C@H](CCC(=O)O)NC(=O)[C@H](CC(C)C)NC(=O)[C@H](CC(=O)O)NC(=O)[C@H](CC(C)C)NC(=O)[C@H](CC(C)C)NC(=O)[C@@H](NC(=O)[C@@H](NC(=O)[C@H](CC(N)=O)NC(=O)[C@@H](NC(=O)[C@H](CCC(N)=O)NC(=O)[C@@H](NC(=O)[C@H](CC(C)C)NC(=O)[C@@H](N)CO)[C@@H](C)O)[C@@H](C)CC)[C@@H](C)O)[C@@H](C)O)C(C)C)C(C)C)C(=O)N[C@@H](CC(=O)O)C(=O)N[C@@H](CCC(=O)O)C(=O)N[C@@H](CCCCN)C(=O)N[C@@H](CCC(=O)O)C(=O)N[C@@H](CC(C)C)C(=O)O
10 μM peptide
  Normalize (plaque number): 192
  Percent of DMSO #: 31.17%
